Mutational interference map of HIV-1 RNA dimerization

Source: Ye et al. 2022 (doi:10.1038/s41594-022-00746-2), supplementary data.

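Randomly mutated transcripts starting with one, two or three G (1G, 2G, 3G), capped or uncapped, were folded for 30 min at 37 °C. High salt was 300 mM KCl and 5 mM MgCl2, low salt 40 mM KCl and 0.1 mM MgCl2; monomer and dimer were parted on a native gel. Mutation frequencies in the two bands give Kdimer.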

Sequence of the HIV-1 NL4-3 5' RNA, positions 1 to 437, as numbered in the source:
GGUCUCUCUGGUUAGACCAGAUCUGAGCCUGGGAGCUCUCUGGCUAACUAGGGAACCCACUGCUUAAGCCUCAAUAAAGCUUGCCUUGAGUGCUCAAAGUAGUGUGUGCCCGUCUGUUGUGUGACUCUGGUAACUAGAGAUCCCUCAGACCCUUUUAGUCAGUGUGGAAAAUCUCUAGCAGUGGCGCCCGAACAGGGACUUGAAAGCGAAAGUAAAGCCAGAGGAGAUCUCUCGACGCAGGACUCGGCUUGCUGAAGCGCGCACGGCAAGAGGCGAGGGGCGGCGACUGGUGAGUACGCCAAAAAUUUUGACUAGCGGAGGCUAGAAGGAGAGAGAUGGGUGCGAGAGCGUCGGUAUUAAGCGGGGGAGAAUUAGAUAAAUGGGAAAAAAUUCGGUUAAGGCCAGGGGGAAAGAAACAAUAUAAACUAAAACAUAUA

Values are log2 Kdimer, the median over the changes at each position: higher means that changes there hinder dimer formation, below 0 that they favour it.
One numbering serves 1G, 2G and 3G.
A position is written with its base where known.
Bases beyond 437 are not listed in the source.

| # | position | domain | 2G capped low-salt | 3G capped low-salt |
|---|---|---|---|---|
| 1 | A21 | TAR | -0.08 | -0.10 |
| 2 | A26 | TAR | -0.11 | -0.07 |
| 3 | G27 | TAR | -0.93 | -0.99 |
| 4 | U30 | TAR | -0.31 | -0.04 |
| 5 | G32 | TAR | -0.10 | -0.03 |
| 6 | U39 | TAR | 0.04 | 0.04 |
| 7 | U41 | TAR | -0.08 | -0.19 |
| 8 | C48 | TAR | -0.64 | -0.61 |
| 9 | A50 | TAR | 0.05 | -0.23 |
| 10 | G51 | TAR | -0.09 | -0.01 |
| 11 | C69 | PolyA | -0.03 | -0.29 |
| 12 | C70 | PolyA | 0.22 | -0.17 |
| 13 | U71 | PolyA | 0.00 | -0.05 |
| 14 | G83 | PolyA | -0.08 | -0.20 |
| 15 | G90 | PolyA | -0.34 | -0.56 |
| 16 | U91 | PolyA | -0.22 | -0.30 |
| 17 | G92 | PolyA | 0.55 | 0.51 |
| 18 | C95 | PolyA | -0.19 | 0.50 |
| 19 | G104 | PolyA | 0.71 | -0.24 |
| 20 | C125 | PAS | 0.41 | 0.54 |
| 21 | G130 | PAS | 0.40 | 0.70 |
| 22 | C134 | PBS | -0.22 | -0.22 |
| 23 | U135 | PBS | -0.11 | -0.02 |
| 24 | G137 | PBS | 0.67 | 0.33 |
| 25 | C143 | PBS | 0.19 | 0.28 |
| 26 | A149 | PBS | -0.05 | -0.16 |
| 27 | G158 | PBS | -0.29 | -0.39 |
| 28 | G162 | PBS | -0.47 | -0.45 |
| 29 | A168 | PBS | 0.45 | 0.24 |
| 30 | U174 | PBS | -0.54 | -0.55 |
| 31 | U176 | PBS | 0.00 | -0.24 |
| 32 | G184 | PBS | 0.24 | 0.79 |
| 33 | A194 | PBS | 0.36 | 0.92 |
| 34 | A203 | PBS | 0.75 | 0.76 |
| 35 | A205 | PBS | -0.06 | -0.04 |
| 36 | A210 | PBS | -0.14 | -0.09 |
| 37 | A220 | antiPAS | -0.19 | -0.07 |
| 38 | C229 | CU | 0.25 | 0.45 |
| 39 | C231 | CU | 0.31 | 0.22 |
| 40 | U232 | CU | 0.95 | 0.91 |
| 41 | A242 | none | 1.65 | 2.02 |
| 42 | C243 | SL1 | 1.12 | 1.44 |
| 43 | C248 | SL1 | 0.53 | 0.80 |
| 44 | G251 | SL1 | 2.80 | 3.65 |
| 45 | G272 | SL1 | -0.37 | -0.14 |
| 46 | C274 | SL1 | 0.85 | 1.23 |
| 47 | G277 | SL1 | 1.98 | 2.48 |
| 48 | G282 | none | 1.03 | 1.24 |
| 49 | G283 | SL2 | -0.18 | -0.01 |
| 50 | C297 | SL2 | -0.03 | -0.03 |
| 51 | A301 | none | 0.40 | 0.35 |
| 52 | C312 | SL3 | 0.26 | 0.17 |
| 53 | G321 | SL3 | 1.22 | 1.15 |
| 54 | G335 | AUG | 0.31 | 0.85 |
| 55 | G342 | AUG | -0.06 | 0.44 |
| 56 | A379 | none | 0.05 | 0.02 |
| 57 | U397 | none | -0.01 | -0.02 |
| 58 | A398 | none | 0.01 | -0.06 |
| 59 | G401 | none | -0.25 | -0.06 |
| 60 | C403 | none | -0.42 | -0.32 |
| 61 | G407 | none | -0.06 | 0.04 |
| 62 | A410 | none | -0.05 | -0.02 |
| 63 | C417 | none | 0.09 | 0.09 |
| 64 | A418 | none | 0.04 | 0.16 |
| 65 | U420 | none | 0.05 | 0.13 |
| 66 | A430 | none | 0.02 | 0.03 |
| 67 | C432 | none | 0.05 | 0.07 |
| 68 | A437 | none | 0.12 | 0.10 |
| 69 | 441 | none | -0.15 | -0.13 |
| 70 | 444 | none | 0.10 | 0.17 |
| 71 | 462 | none | -0.04 | 0.02 |
| 72 | 472 | none | -0.06 | 0.10 |
| 73 | 493 | none | 0.13 | 0.15 |
| 74 | 499 | none | 0.00 | 0.07 |
| 75 | 502 | none | 0.08 | 0.29 |
| 76 | 512 | none | -0.03 | 0.00 |

The first 8 entries again:

{"position": "A21", "domain": "TAR", "2G capped low-salt": -0.08, "3G capped low-salt": -0.10}
{"position": "A26", "domain": "TAR", "2G capped low-salt": -0.11, "3G capped low-salt": -0.07}
{"position": "G27", "domain": "TAR", "2G capped low-salt": -0.93, "3G capped low-salt": -0.99}
{"position": "U30", "domain": "TAR", "2G capped low-salt": -0.31, "3G capped low-salt": -0.04}
{"position": "G32", "domain": "TAR", "2G capped low-salt": -0.10, "3G capped low-salt": -0.03}
{"position": "U39", "domain": "TAR", "2G capped low-salt": 0.04, "3G capped low-salt": 0.04}
{"position": "U41", "domain": "TAR", "2G capped low-salt": -0.08, "3G capped low-salt": -0.19}
{"position": "C48", "domain": "TAR", "2G capped low-salt": -0.64, "3G capped low-salt": -0.61}